Pooled drug test results. Numbers come from NIAID ChemDB, via PubChem.

All rows: whole-cell or culture tests; agent: HIV-1; cell line: MT-4; measure: EC50

Neighbouring rows are from separate reports.

{"SMILES": "CC(C)(C)NC(=O)[C@@H]1C[C@@H]2CCCC[C@@H]2CN1C[C@@H](O)[C@H](Cc1ccccc1)NC(=O)[C@H](CC(N)=O)NC(=O)c1ccc2ccccc2n1", "strain": "NL4-3", "mutations": "L10F V32I M46I I45M A71V I84V APV resistant", "result": "0.09 µM"}
{"SMILES": "Cc1cn([C@H]2C[C@H](N=[N+]=[N-])[C@@H](CO)O2)c(=O)[nH]c1=O", "strain": "HXB2-D184 (RT-M184V)", "mutations": "RT-M184V", "read by": "p24", "result": "0.06 µM"}
{"SMILES": "c1cc(CNCCCN2CCCC2)ccc1CCNCCCN1CCOCC1", "read by": "MTT", "result": "9.725 µM"}
{"SMILES": "O=c1c(O)c(-c2ccc(O)c(O)c2)oc2cc(O)cc(O)c12", "strain": "IIIB", "read by": "MTT", "result": ">100 µg/mL"}
{"SMILES": "CCc1c(Sc2ccc3ccccc3c2NC(C)=O)n(COCc2ccccc2)c(=O)[nH]c1=O", "strain": "IIIB", "read by": "cytopathic effect / MTT", "result": "8.78 µM"}
{"SMILES": "COCOc1ccc(/C=C/C(=O)c2c(O)cc(OCOC)cc2OCOC)c(OCOC)c1", "strain": "IIIB", "read by": "cytopathic effect / MTT", "result": ">20 µg/mL"}
{"SMILES": "CC(C)=CCN1Cc2cc(Cl)cc3[nH]c(=S)n(c23)C[C@@H]1C", "strain": "IIIB Recombinant wild type", "read by": "cytopathic effect / MTT", "result": "0.149 µM"}
{"SMILES": "CC1(C)CCc2c(cc(O)c3c2OC(c2ccc(O)c(O)c2)CC3=O)O1", "strain": "IIIB", "read by": "MTT", "result": ">10 µg/mL"}
{"SMILES": "COCn1c(Sc2cccc3ccccc23)c(C(C)C)c(=O)[nH]c1=O", "strain": "IIIB", "read by": "cytopathic effect / MTT", "result": "0.51 µM"}
{"SMILES": "Cc1cc(C)c(-n2nnnc2SCC(=O)Nc2ccc(S(N)(=O)=O)cc2Cl)c(C)c1", "read by": "p24", "setting": "10% FBS", "result": "<0.016 µM"}
{"SMILES": "CC1(C)C=Cc2c(cc(O)c3c(=O)c4c(oc23)-c2ccc(O)cc2OC(C(C)(C)OO)C4)O1", "strain": "IIIB", "read by": "cytopathic effect / MTT", "result": ">40 µg/mL"}
{"SMILES": "c1cc(CNCCN2CCOCC2)ccc1CNCCN1CCOCC1", "read by": "MTT", "result": ">236.4 µM"}
{"SMILES": "CCOCn1c(Sc2cccc3ccccc23)c(C(C)C)c(=O)[nH]c1=O", "strain": "IIIB", "read by": "cytopathic effect / MTT", "result": "0.057 µM"}
{"SMILES": "COc1cc(O)cc2c1[C@@H]1Oc3c(ccc(O)c3CC=C(C)C)[C@@H]1CO2", "strain": "IIIB", "read by": "cytopathic effect / MTT", "result": ">20 µg/mL"}
{"SMILES": "O=C(Cc1ccc(CC(=O)NCCN2CCOCC2)cc1)NCCN1CCOCC1", "read by": "MTT", "result": ">299 µM"}
{"SMILES": "Cc1ccnc2c1NC(=O)c1cccnc1N2C1CC1", "mutations": "RT-D67N K70R T215Y K219Q K103N", "result": ">3 µM"}
{"SMILES": "CC(C)c1c(Sc2cccc3ccccc23)n(COCCc2ccccc2)c(=O)[nH]c1=O", "strain": "IIIB", "read by": "cytopathic effect / MTT", "result": "2.77 µM"}
{"SMILES": "O=c1[nH]cnc2c1ncn2[C@H]1CC[C@@H](CO)O1", "strain": "HXB2-D (RT K65R M184V)", "mutations": "RT-K65R M184V", "read by": "p24", "result": "34.2 µM"}
{"SMILES": "CC(C)CN(C[C@@H](O)[C@H](Cc1ccccc1)NC(=O)O[C@H]1CO[C@H]2OCC(F)(F)[C@H]21)S(=O)(=O)c1ccc(N)cc1", "strain": "NL4-3", "mutations": "L10F V32I M46I I45M A71V I84V APV resistant", "result": "0.56 µM"}
{"SMILES": "CC(C)=CC1Oc2cc(O)ccc2-c2oc3c4c(cc(O)c3c(=O)c21)OC(C)(C)C=C4", "strain": "IIIB", "read by": "cytopathic effect / MTT", "result": ">40 µg/mL"}
{"SMILES": "COc1ccc2c(c1)N(C(=O)OC(C)C)[C@@H](CSC)C(=S)N2", "strain": "Recombinant wild type", "read by": "cytopathic effect / MTT", "result": "0.0019 µM"}
{"SMILES": "O=C(Cc1ccc(CC(=O)NCCCN2CCOCC2)cc1)NCCCN1CCOCC1", "read by": "MTT", "result": ">280 µM"}
{"SMILES": "CCCc1c(Sc2cccc3ccccc23)n(COCC)c(=O)[nH]c1=O", "strain": "IIIB", "read by": "cytopathic effect / MTT", "result": "1.86 µM"}
{"SMILES": "CO[P@](=O)(c1cc(C)cc(/C=C/C#N)c1)c1c(C(N)=O)[nH]c2ccc(Cl)cc12", "strain": "BH10", "mutations": "Y181C/K103N", "result": "0.0066 µM"}
{"SMILES": "CCCc1c(Sc2cccc3ccccc23)n(COCc2ccccc2)c(=O)[nH]c1=O", "strain": "IIIB", "read by": "cytopathic effect / MTT", "result": "0.83 µM"}
{"SMILES": "Cc1cc(C)c(-n2nnnc2SCC(=O)Nc2ccc(C(=O)NCCCN(C)C)cc2Cl)c(C)c1", "read by": "p24", "setting": "10% FBS", "result": "<0.062 µM"}
{"SMILES": "CCn1c(=O)c(C)cn([C@@H]2O[C@H](CO[Si](C)(C)C(C)(C)C)C3(OS(=O)(=O)C=C3N)[C@H]2O[Si](C)(C)C(C)(C)C)c1=O", "strain": "IIIB", "mutations": "RT-E138K", "read by": "cytopathic effect / MTT", "result": "36.57 µM"}
{"SMILES": "O=C(CSc1nnnn1-c1cc(Cl)ccc1Cl)Nc1ccccc1[N+](=O)[O-]", "read by": "p24", "setting": "50% human serum", "result": "<1.25 µM"}
{"SMILES": "CC(C)=CCc1c(O)cc(O)c2c1CCc1cc(O)c(O)cc1-2", "strain": "IIIB", "read by": "cytopathic effect / MTT", "result": ">20 µg/mL"}
{"SMILES": "Cc1ccnc2c1NC(=O)c1cccnc1N2C1CC1", "strain": "HXB2 (RT E138A S162C E169D T200A L214F) Clinical isolate", "mutations": "RT-E138A S162C E169D T200A L214F", "read by": "cytopathic effect / MTT", "result": "0.132 µM"}
{"SMILES": "COC(=O)N[C@H](C(=O)N[C@@H](Cc1ccccc1)[C@@H](O)CN(Cc1ccc(-c2ccccn2)cc1)NC(=O)[C@@H](NC(=O)OC)C(C)(C)C)C(C)(C)C", "strain": "NL4-3", "mutations": "M46I I50V N38K M36I GRL05010-resistant", "result": "0.095 µM"}
{"SMILES": "COc1cc2c(c(OC)c1CC=C(C)C)C[C@H](c1ccc(O)c(CC=C(C)C)c1O)CO2", "strain": "IIIB", "read by": "MTT", "result": "14 µg/mL"}
{"SMILES": "CC(C)c1nc(CN(C)C(=O)N[C@H](C(=O)N[C@@H](Cc2ccccc2)C[C@H](O)[C@H](Cc2ccccc2)NC(=O)OCc2cncs2)C(C)C)cs1", "strain": "NL4-3", "mutations": "PR-D30N", "read by": "p24", "result": "<0.01 µM"}
{"SMILES": "CC(C)=CCOc1ccc([C@@H]2COc3c(ccc4c3C=CC(C)(C)O4)C2)c(O)c1", "strain": "IIIB", "read by": "MTT", "result": ">100 µg/mL"}
{"SMILES": "CCc1cc(NCc2nc3c(Cl)ccc(Cl)c3o2)c(=O)[nH]c1C", "strain": "NL4-3", "mutations": "RT-V106A", "read by": "p24", "result": "0.1 µM"}
{"SMILES": "Cc1cc(C)c(-n2nnnc2SCC(=O)Nc2ccc(S(N)(=O)=O)cc2C)c(C)c1", "read by": "p24", "setting": "10% FBS", "result": "<0.05 µM"}
{"SMILES": "Nc1ccn([C@H]2CC[C@@H](CO)O2)c(=O)n1", "strain": "Recombinant wild type", "read by": "cytopathic effect / MTT", "result": "4.005 µM"}

The last 2 rows once more:

{"SMILES": "Cc1cc(C)c(-n2nnnc2SCC(=O)Nc2ccc(S(N)(=O)=O)cc2C)c(C)c1", "read by": "p24", "setting": "10% FBS", "result": "<0.05 µM"}
{"SMILES": "Nc1ccn([C@H]2CC[C@@H](CO)O2)c(=O)n1", "strain": "Recombinant wild type", "read by": "cytopathic effect / MTT", "result": "4.005 µM"}

ECn is the concentration giving n% inhibition of infection, replication or growth.